A mixed list of measured activities; the numbers were collected in NIAID ChemDB.

Common to all: target-level tests; agent: HIV; target: Reverse transcriptase

Percent inhibition refers to the dose given; in toxicity tests it is the harm to the cells. Fold resistance: result on the changed form divided by that on wild type. ICn is the concentration giving n% inhibition. Rows are shuffled and stem from different studies. Blank or dashed fields: not listed here.

| SMILES | mutations | method | measure | dose | value |
|---|---|---|---|---|---|
| Nc1ccn([C@H]2CC[C@@H](COP(=O)(O)OP(=O)(O)OP(=O)(O)O)O2)c(=O)n1 |  | RT activity | Ki |  | 0.29 µM |
| CCc1cc(C(=O)OC)c(NC(=S)Nc2nc3cc(C)c(C)cc3s2)s1 |  | nucleotide incorporation | inhibition | 10 µM | 83% |
| C[C@H](Cn1cnc2c(N)ncnc21)OCP(=O)(O)OP(=O)(O)OP(=O)(O)O |  |  | Ki |  | 0.18 µM |
| Nc1nc2c(ncn2[C@H]2CC[C@@H](COP(=O)(O)OP(=O)(O)OP(=O)(O)O)O2)c(=O)[nH]1 | RT-E138K | nucleotide incorporation | IC50 |  | 0.609 µM |
| Cc1c(C(C)c2c(F)cccc2F)nc(NC2CCCC2)[nH]c1=O | RT-K103N | nucleotide incorporation / radiometric | IC50 |  | 0.08 µM |
| Nc1nc2c(ncn2[C@H]2CC[C@@H](COP(=O)(O)OP(=O)(O)OP(=O)(O)O)O2)c(=O)[nH]1 | RT-E138K(P51 ONLY) |  | fold resistance |  | 0.2 |
| CC(C)Nc1cccnc1N1CCN(C(=O)c2cc3ccccc3[nH]2)CC1 | RT-Y181C | nucleotide incorporation | IC50 |  | 37 µM |
| c1ccc(C2SCc3nc4ccccc4n32)cc1 | RT-K103N Y181I |  | IC50 |  | >50 µM |
| CCOCn1c(Cc2ccccc2)c(C(C)C)c(=O)[nH]c1=O | RT-V106A P225H | RT activity | Ki |  | 0.73 µM |
| Cc1cn([C@@H]2O[C@H](CO[Si](C)(C)C(C)(C)C)C3(OS(=O)(=O)C=C3N)[C@H]2O[Si](C)(C)C(C)(C)C)c(=O)n(C)c1=O | RT-V106A | nucleotide incorporation | fold resistance |  | >183 |
| Nc1ncnc2c1ncn2[C@@H]1O[C@H](OCP(=O)(O)OP(=O)(O)OP(=O)(O)O)C=C1F |  |  | Ki |  | 0.8 µM |
| CC(C)=CCOc1cc(NC(=S)c2ccoc2C)ccc1Cl | RT-N137H | nucleotide incorporation / radiometric | IC50 |  | 0.048 µM |
| Nc1nc2c(ncn2[C@H]2C=C[C@@H](COP(=O)(O)OP(=O)(O)OP(=O)(O)O)C2)c(=O)[nH]1 |  |  | Ki |  | 0.11 µM |
| COc1ccc2c(c1)N(C(=O)OC(C)C)[C@@H](CSC)C(=S)N2 | RT-D67N K70R T215F K219Q | RT activity | fold resistance |  | 1 |
| CO[P@](=O)(c1cc(C)cc(/C=C/C#N)c1)c1c(C(N)=O)[nH]c2ccc(Cl)cc12 | V108I |  | IC50 |  | 0.83 µM |
| CC(C)=CCN1Cc2cccc3[nH]c(=S)n(c23)C[C@@H]1C | RT-E138K(P66 ONLY) |  | fold resistance |  | 0.8 |
| Nc1nc2c(ncn2[C@H]2CC[C@@H](COP(=O)(O)OP(=O)(O)OP(=O)(O)O)O2)c(=O)[nH]1 | RT-N137H | nucleotide incorporation / radiometric | fold resistance |  | 14 |
| Cc1cn([C@@H]2O[C@H](CO[Si](C)(C)C(C)(C)C)C3(OS(=O)(=O)C=C3N)[C@H]2O[Si](C)(C)C(C)(C)C)c(=O)n(C)c1=O | RT-E138K | nucleotide incorporation | inhibition | 150 µM | 23% |

2 of the rows above, restated:

| SMILES | mutations | method | measure | dose | value |
|---|---|---|---|---|---|
| CO[P@](=O)(c1cc(C)cc(/C=C/C#N)c1)c1c(C(N)=O)[nH]c2ccc(Cl)cc12 | V108I |  | IC50 |  | 0.83 µM |
| CCc1cc(C(=O)OC)c(NC(=S)Nc2nc3cc(C)c(C)cc3s2)s1 |  | nucleotide incorporation | inhibition | 10 µM | 83% |